Sequence variants of PSTVd stem 15 after infection

The measurements come from Wu et al. 2024 (doi:10.1371/journal.ppat.1012142).

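A pool of all variants was put on leaves of three Nicotiana benthamiana plants. Samples came from the inoculated region at 5 days, the leaf margin at 10 and upper systemic leaves at 12.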

Region: stem 15 of PSTVd (intermediate strain), upper and lower strand joined, each 5' to 3', the first 9 letters being the upper strand. Wild type: CUGGAGCGAUCGCUUCGG. Varied positions (N): CUGGAGCGAUNGNNUNNG.

Numbers give reads per thousand; 0 = not seen among the reads, higher = more abundant.
Each site shows the three plants.
"Pool" is the share in the plasmid pool used as inoculum, on the same scale.
The inoculated region was read from the minus strand, the other sites from the plus strand.
Samples held 36,693 to 63,082 reads, so the smallest values rest on one or two reads.
Wild type was 10.2 per thousand in the pool and the most common sequence in every sample (inoculated region 285, 367, 312; leaf margin 785, 865, 782; systemic leaves 854, 898, 915).
Sequences that differ at fixed positions probably stem from PCR or sequencing errors, and defective variants can be carried along by functional ones.

sequence | pool | inoculated region | leaf margin | systemic leaves
CUAGAGCGAUCGCGUCAG | 0.0162 | 0 / 0 / 0 | 0 / 0 / 0 | 0 / 0 / 0
CUGGAGCGAUAGACUUAG | 0.889 | 1.92 / 1.09 / 1.38 | 0.579 / 0.0545 / 0.745 | 0 / 0 / 0
CUGGAGCGAUAGAGUAAG | 1.02 | 0.137 / 0.230 / 0.354 | 0.0620 / 0 / 0 | 0 / 0 / 0
CUGGAGCGAUAGAGUAGG | 0.549 | 0.235 / 0.293 / 0.335 | 0.0414 / 0.0273 / 0.0317 | 0 / 0 / 0
CUGGAGCGAUAGAGUUCG | 0.921 | 0.215 / 0.293 / 0.186 | 0.0620 / 0.0818 / 0 | 0 / 0 / 0
CUGGAGCGAUAGCCUCCG | 0.727 | 0.333 / 0.293 / 0.279 | 0 / 0.0273 / 0.0159 | 0 / 0 / 0
CUGGAGCGAUAGCGUCAG | 0.857 | 0.313 / 0.209 / 0.372 | 0.103 / 0.0818 / 0.0159 | 0 / 0 / 0
CUGGAGCGAUAGGCUACG | 1.10 | 0.411 / 0.251 / 0.428 | 0.103 / 0 / 0.0317 | 0 / 0 / 0
CUGGAGCGAUAGGCUCAG | 0.824 | 0.254 / 0.147 / 0.335 | 0.0414 / 0 / 0 | 0 / 0 / 0
CUGGAGCGAUAGGUUCAG | 1.45 | 0.959 / 0.628 / 0.819 | 0.103 / 0 / 0.0159 | 0 / 0 / 0.0399
CUGGAGCGAUAGUGUCUG | 0.711 | 0.333 / 0.168 / 0.298 | 0.0414 / 0 / 0.0634 | 0 / 0 / 0
CUGGAGCGAUCGAAUACG | 1.66 | 0.509 / 0.523 / 0.893 | 0.0414 / 0 / 0.0317 | 0 / 0 / 0
CUGGAGCGAUCGAAUCAG | 0.792 | 0.313 / 0.356 / 0.261 | 0.0827 / 0 / 0.0159 | 0 / 0 / 0
CUGGAGCGAUCGAAUCUG | 0.792 | 0.157 / 0.272 / 0.298 | 0.0207 / 0.0273 / 0.0159 | 0 / 0 / 0
CUGGAGCGAUCGAAUUCG | 0.824 | 0.333 / 0.147 / 0.354 | 0.0620 / 0.0545 / 0.0317 | 0 / 0 / 0
CUGGAGCGAUCGAUUUAG | 0.986 | 0.196 / 0.314 / 0.205 | 0.0620 / 0.0273 / 0.0159 | 0 / 0 / 0
CUGGAGCGAUCGCAUGAG | 0.921 | 0.274 / 0.335 / 0.186 | 0.0207 / 0.0273 / 0 | 0 / 0 / 0
CUGGAGCGAUCGCCUCCG | 0.889 | 0.294 / 0.168 / 0.186 | 0.0414 / 0.0273 / 0.0317 | 0 / 0 / 0
CUGGAGCGAUCGCCUGGG | 0.792 | 0.215 / 0.209 / 0.372 | 0.0414 / 0 / 0.0159 | 0 / 0 / 0
CUGGAGCGAUCGCGUGUG | 0.889 | 0.274 / 0.293 / 0.261 | 0.0414 / 0.0545 / 0 | 0 / 0 / 0
CUGGAGCGAUCGCGUUCG | 0.776 | 0.470 / 0.335 / 0.372 | 0.0414 / 0.0273 / 0.0476 | 0 / 0 / 0
CUGGAGCGAUCGCUUGUG | 1.03 | 0.313 / 0.230 / 0.316 | 0.0620 / 0 / 0.0159 | 0.0198 / 0 / 0
CUGGAGCGAUCGGAUGAG | 0.776 | 0.215 / 0.335 / 0.298 | 0.0207 / 0.0273 / 0.0476 | 0 / 0 / 0
CUGGAGCGAUCGGGUCCG | 1.81 | 0.920 / 0.859 / 0.726 | 0.0620 / 0.0545 / 0 | 0 / 0 / 0.0199
CUGGAGCGAUCGUAUACG | 0.840 | 0.274 / 0.188 / 0.409 | 0.0620 / 0 / 0.0317 | 0 / 0 / 0
CUGGAGCGAUCGUUUCCG | 0.808 | 0.294 / 0.251 / 0.372 | 0.0207 / 0.0273 / 0.0159 | 0 / 0 / 0
CUGGAGCGAUGGAAUCUG | 0.792 | 0.313 / 0.209 / 0.186 | 0.103 / 0.0273 / 0.0634 | 0 / 0 / 0
CUGGAGCGAUGGACUAUG | 0.905 | 0.196 / 0.335 / 0.316 | 0.0414 / 0.0273 / 0 | 0 / 0 / 0
CUGGAGCGAUGGAGUACG | 0.840 | 0.333 / 0.293 / 0.223 | 0.0414 / 0.0273 / 0.0317 | 0 / 0 / 0
CUGGAGCGAUGGAGUCUG | 0.873 | 0.411 / 0.251 / 0.316 | 0.0620 / 0.0273 / 0.0159 | 0 / 0 / 0
CUGGAGCGAUGGAUUACG | 1.21 | 0.646 / 0.754 / 0.931 | 0.103 / 0.0273 / 0.0317 | 0 / 0.0222 / 0
CUGGAGCGAUGGCCUGCG | 0.889 | 0.196 / 0.293 / 0.279 | 0.103 / 0.0273 / 0.0159 | 0 / 0 / 0
CUGGAGCGAUGGCCUUGG | 0.986 | 0.274 / 0.377 / 0.354 | 0 / 0 / 0 | 0 / 0 / 0
CUGGAGCGAUGGUAUUGG | 0.743 | 0.294 / 0.314 / 0.242 | 0.0620 / 0.0273 / 0.0317 | 0 / 0 / 0
CUGGAGCGAUGGUCUCUG | 0.937 | 0.430 / 0.188 / 0.279 | 0 / 0.0818 / 0.0159 | 0 / 0 / 0
CUGGAGCGAUGGUGUUAG | 0.937 | 2.07 / 1.09 / 1.79 | 0.620 / 0 / 1.19 | 1.01 / 0 / 0
CUGGAGCGAUGGUGUUUG | 0.905 | 1.80 / 0.963 / 0.372 | 0.124 / 0.0545 / 0.0476 | 0 / 0 / 0
CUGGAGCGAUGGUUUUGG | 0.776 | 0.196 / 0.272 / 0.298 | 0.0414 / 0.0273 / 0.0317 | 0 / 0 / 0
CUGGAGCGAUUGAAUCCG | 0.663 | 0.333 / 0.314 / 0.409 | 0.0414 / 0.0818 / 0.0317 | 0 / 0 / 0
CUGGAGCGAUUGACUUGG | 0.679 | 2.33 / 0.963 / 0.298 | 0 / 0 / 0.0317 | 0 / 0 / 0
CUGGAGCGAUUGAUUCAG | 0.760 | 0.313 / 0.398 / 0.261 | 0.0620 / 0.0545 / 0.0159 | 0 / 0 / 0
CUGGAGCGAUUGAUUUGG | 0.857 | 0.215 / 0.314 / 0.242 | 0.0207 / 0 / 0 | 0 / 0 / 0
CUGGAGCGAUUGGCUCCG | 0.889 | 0.215 / 0.126 / 0.279 | 0.0414 / 0.0273 / 0.0476 | 0 / 0 / 0
CUGGAGCGAUUGGCUGGG | 0.695 | 0.294 / 0.188 / 0.354 | 0.0620 / 0.0273 / 0.0159 | 0 / 0 / 0
CUGUAGCGAUAGUUUAUG | 0.0162 | 0 / 0 / 0 | 0 / 0 / 0 | 0 / 0 / 0

Excerpt, the final 3 entries:

* CUGGAGCGAUUGGCUCCG (pool 0.889): inoculated region 0.215 / 0.126 / 0.279; leaf margin 0.0414 / 0.0273 / 0.0476; systemic leaves 0 / 0 / 0
* CUGGAGCGAUUGGCUGGG (pool 0.695): inoculated region 0.294 / 0.188 / 0.354; leaf margin 0.0620 / 0.0273 / 0.0159; systemic leaves 0 / 0 / 0
* CUGUAGCGAUAGUUUAUG (pool 0.0162): inoculated region 0 / 0 / 0; leaf margin 0 / 0 / 0; systemic leaves 0 / 0 / 0